Results of unrelated studies side by side (data: NIAID ChemDB).

All rows: tests in culture; agent: HIV-1

ECn is the concentration giving n% inhibition of infection, replication or growth. Blank or dashed fields: not listed here. Fold resistance has wild type as its base. Conditions beyond the fields shown may differ between rows.

structure	strain or isolate	changes	cell line	read by	measure	value
CC(C)n1c(=O)c(O)c2n(c1=O)C(CCN1CCc3ccccc3C1)CN(Cc1ccc(F)cc1)C2=O			MT-4	p24	EC95	<10 µM
Cc1cc(S(N)(=O)=O)ccc1NC(=O)COc1ccc(Cl)cc1C(=O)c1cccc(C#N)c1	HXB2	RT-V108I	HeLa + HELA CD4+	β-galactosidase	fold resistance	~1
CC1(C)CC(=O)C(S(=O)(=O)N(CC2CCCC2)C[C@@H](O)CN(CCc2ccccc2)C(=O)c2ccccc2)C(=O)S1(=O)=O	IIIB		CEM	p24	EC90	1 µM
Cc1cc2[nH]cnc2cc1NC(=O)COc1ccc(Cl)cc1C(=O)c1cc(F)cc(C(F)(F)F)c1	HXB2	RT-P225H	HeLa + HELA CD4+	β-galactosidase	fold resistance	~1
CCCN(CC(=O)c1ccccc1)C[C@H](O)CN(CC1CCCC1)S(=O)(=O)c1ccc(OC)cc1	IIIB		CEM	p24	EC90	1 µM
C/C=C/CSc1cc(NC(=S)c2ccsc2C)ccc1Cl	NL4-3	RT-V108I	CEM + CEM-SS	p24	fold resistance	2.5
O=C(O[C@H]1CCOC1)N(Cc1ccccc1)CC(O)CN(CC1CCCC1)S(=O)(=O)c1ccccc1	IIIB		CEM	p24	EC90	1 µM
O=C1Nc2ccc(F)c(F)c2[C@@](C#CC2CC2)(C(F)(F)F)N1		RT-Y188C			fold resistance	<13.3
CSc1ccccc1CNC(=O)c1nc2n(c(=O)c1O)CN(C)C2(C)C			MT-4	p24	EC95	<50 µM
O=C1c2c(O)c(=O)n(C3CCCCC3N3CCOCC3)c(=O)n2CCN1Cc1ccc(F)cc1			MT-4	p24	EC95	<10 µM
O=C1Nc2ccc(F)c(F)c2[C@@](/C=C/C2CC2)(C(F)(F)F)N1		RT-V108I			EC90	<0.012 µM
COc1ccnc2[nH]cc(C(=O)C(=O)N3CCN(C(=O)c4ccccc4)C[C@H]3C)c12	AC10		TZM-bl	luciferase	EC90	0.69 µM
Nc1nc(NC2CC2)c2ncn([C@H]3C=C[C@@H](CO)C3)c2n1	NL-XM WT		PBMC	p24	EC90	4.5 µM
Cc1cc(C)cc(C(=O)c2cc(Cl)ccc2OCC(=O)Nc2ccc(S(N)(=O)=O)cc2C)c1	HXB2	RT-P225H	HeLa + HELA CD4+	β-galactosidase	fold resistance	~1
O=C1c2c(O)c(=O)n(C3CCS(=O)(=O)CC3)c(=O)n2CCN1Cc1ccc(F)cc1			MT-4	p24	EC95	<10 µM
O=C(O)CN1CCn2c(nc(C(=O)NCc3ccc(F)cc3)c(O)c2=O)C1			MT-4	p24	EC95	<50 µM
O=C(N[C@@H](Cc1ccccc1)C(=O)C(F)(F)CN(Cc1ccccc1)S(=O)(=O)c1ccccc1)OCc1ccccc1	IIIB		CEM	p24	EC90	1 µM
O=C(O)c1cc(-n2cccc2)ccc1Cl	93BR020 X4R5 CLADE F		PBMC + MT-2	p24	EC90	8.55 µM
COc1ccnc2[nH]cc(C(=O)C(=O)N3C4CCC3CN(C(=O)c3ccccc3)C4)c12	AC10		TZM-bl	luciferase	EC90	18 µM
CC(C)CN(CC(O)CN(CC(C)C)S(=O)(=O)c1ccc(O)cc1)S(=O)(=O)c1ccccc1	IIIB		CEM	p24	EC90	1 µM
CC(C)=CCOc1cc(NC(=S)c2ccoc2C)ccc1Cl	Isolate NL4-3		CEM + CEM-SS	cytopathic effect / XTT	EC50	0.006 µM
Cc1cc(C#N)cc(C(=O)c2cc(Cl)ccc2OCC(=O)Nc2ccc(S(N)(=O)=O)cc2C)c1	HXB2	RT-V106I Y181C	HeLa + HELA CD4+	β-galactosidase	fold resistance	~1
Cc1cc(CN2CCn3c(nc(C(=O)NCc4ccc(F)cc4)c(O)c3=O)C2(C)C)on1			MT-4	p24	EC95	<1 µM
C[C@H]1CO[C@@H]2Cn3cc(C(=O)NCc4ccc(F)cc4F)c(=O)c(O)c3C(=O)N12	NL4-3	E138K/R263K	CBMC	RT activity	fold resistance	2.1
CC(C)=CCOc1cc(NC(=S)c2ccsc2C)ccc1Cl	E BPTU-resistant (RT Y181C)	RT-Y181C	CEM + CEM-SS	cytopathic effect / XTT	fold resistance	25
COc1ccc(S(=O)(=O)N(CC(C)C)C[C@@H](O)CCN(CC2CCCC2)S(=O)(=O)CC(C)(C)C)cc1	IIIB		CEM	p24	EC90	1 µM
Nc1nc(=O)n([C@H]2C=C[C@@H](CO)O2)cc1F	NL-XM WT		PBMC	p24	EC90	1.7 µM
O=C1NC(=O)C(CS(=O)(=O)N(CC2CCCC2)C[C@@H](O)CN(CCc2ccccc2)C(=O)c2ccccc2)N1	IIIB		CEM	p24	EC90	1 µM
Cc1cc2cn[nH]c2cc1NC(=O)COc1ccc(Cl)cc1C(=O)c1cccc(C#N)c1	HXB2	RT-V106A	HeLa + HELA CD4+	β-galactosidase	fold resistance	~100
COc1ccc(S(=O)(=O)N(CC(C)C)C[C@@H](O)CCN(CC2CCCC2)S(=O)(=O)C2CCCOC2)cc1	IIIB		CEM	p24	EC90	1 µM
Cc1cc(C#N)cc(C(=O)c2cc(Cl)ccc2OCC(=O)Nc2cnc(S(N)(=O)=O)cc2C)c1	HXB2 (RT-K103N G190A) Recombinant	RT-K103N G190A	HeLa + HELA CD4+	β-galactosidase	fold resistance	~1
COc1ccc(S(=O)(=O)N(Cc2ccccc2)CC(F)(F)C(=O)[C@@H](Cc2ccccc2)NC(=O)OC2COCOC2)cc1	IIIB		CEM	p24	EC90	1 µM
COC(=O)N(C)C1CN(C)CCn2c1nc(C(=O)NCc1ccc(F)cc1)c(O)c2=O			MT-4	p24	EC95	<1 µM
CCC(=O)c1ccc(F)c([C@@H]2C[C@@H]2NC(=O)Nc2ccc(C#N)cn2)c1O	LAI	NNRTI-resistant (RT P236L)	TZM-bl	β-galactosidase / luminescence	fold resistance	0.9
CC(C)[C@H](NC(=O)OCc1ccccn1)C(=O)N[C@@H](Cc1ccccc1)[C@@H](O)C[C@H](Cc1ccccc1)NC(=O)OCc1cccnc1	Isolate A PR L10V/T12I/G16E/R57K/I64V	PR-L10V T12I G16E R57K I64V	PBMC	p24	EC95	0.8 µM
CC(C)(CN1CCOCC1)Cn1c(=O)c(O)c2n(c1=O)CCN(Cc1ccc(F)cc1)C2=O			MT-4	p24	EC95	<10 µM
Cc1cc(S(N)(=O)=O)ccc1NC(=O)COc1ccc(Cl)cc1C(=O)c1cc(F)cc(C(F)(F)F)c1	HXB2	RT-K103N V108I	HeLa + HELA CD4+	β-galactosidase	fold resistance	~1
CCN1CCn2c(nc(C(=O)NCc3ccc(F)c(C)c3)c(O)c2=O)C(N(C)C(=O)C(=O)N(C)C)C1			MT-4	p24	EC95	<1 µM

The last 2 rows once more:

structure	strain or isolate	changes	cell line	read by	measure	value
Cc1cc(S(N)(=O)=O)ccc1NC(=O)COc1ccc(Cl)cc1C(=O)c1cc(F)cc(C(F)(F)F)c1	HXB2	RT-K103N V108I	HeLa + HELA CD4+	β-galactosidase	fold resistance	~1
CCN1CCn2c(nc(C(=O)NCc3ccc(F)c(C)c3)c(O)c2=O)C(N(C)C(=O)C(=O)N(C)C)C1			MT-4	p24	EC95	<1 µM